Anti-infective test results gathered from many reports (values: NIAID ChemDB through PubChem).

All rows: growth or infection tests; organism: Mycobacterium tuberculosis

MIC bound comes from a single tested concentration.

structure	strain	changes	cell line	method	measure	dose	result
COc1ccc2cc3[n+](cc2c1O)CCc1cc2c(cc1-3)OCO2	H37Rv			BACTEC	inhibition	12.5 µg/mL	-11%
NC(=S)c1ccc(N)cc1	H37Rv (INH-resistant)				MIC		128 µM
Cc1ccc(C2=NN=C3C(c4ccccc4)=Nc4ccccc4N3C2)cc1					MIC		100 µg/mL
CCC1Cn2cc([N+](=O)[O-])nc2O1	H37Rv-14A1 (PA-824-resistant)				MIC		0.8 µM
CCCCCCCCCCCCCCCCCCCCCCCC(=O)OCCc1ccc(O)cc1	H37Rv (ATCC 27294)				MIC		64 µg/mL
Cc1ccc(-c2cc(-c3ccc(Cl)cc3)nc(/N=C3\C(=O)N(CN(C)C)c4ccc(Br)cc43)n2)cc1	H37Rv			BACTEC	inhibition	6.25 µg/mL	88%
NNC(=O)c1ccncc1	85 drug-resistant isolates				EC50		<40 µg/mL
Cc1ccc(-c2cc(-c3ccc(Cl)cc3)nc(/N=C3\C(=O)Nc4ccc(Br)cc43)n2)cc1	H37Rv			BACTEC	inhibition	6.25 µg/mL	92%
CCOC(=O)c1cnc(C2CCCC2)[nH]1	H37Rv				inhibition	6.25 µg/mL	16%
COC(=O)c1c(C)cc(O)c(C)c1O	H37Rv (ATCC 27294)				MIC		>128 µg/mL
C[C@@H](C(=O)N1C(=O)N(C(=O)[C@H](C)[C@H](O)c2ccccc2)[C@@H](c2ccccc2)[C@@H]1c1ccccc1)[C@H](O)c1ccccc1	H37Rv			BACTEC	MIC bound		>12.5 µg/mL
Cc1c(C(=O)Nc2ccccc2)[n+](=O)c2cc(Cl)ccc2n1[O-]	H37Rv		VERO		inhibition	6.25 µg/mL	99%
CN(C)C(=S)N1C(=S)N(c2ccccc2)C(=Nc2ccccc2)C1=Nc1ccccc1	H37Rv			BACTEC	MIC bound		>12.5 µg/mL
CCOC(=O)c1cnc(C(C)C)[nH]1	H37Rv				MIC		>6.25 µg/mL
O=C(NCN1CCNCC1)c1cnccn1	ATCC 35828				MIC		100 µg/mL
O=[N+]([O-])c1cn2c(n1)OC[C@@H](OCc1ccc(OCc3ccccc3)cc1)C2	H37Rv-14A1-3547 (PA-824-resistant)				MIC		0.2 µM
CCN(CC)c1ccc2nc3c4ccccc4c(=N)cc-3oc2c1	H37Rv			BACTEC	inhibition	12.5 µg/mL	95%
CCc1cc(C(N)=S)ccn1	91 drug-resistant isolates				EC50		<20 µg/mL
NNC(=O)c1ccccn1	H37Rv (drug-susceptible)				MIC		64 µM
NC[C@H]1O[C@H](O[C@H]2[C@H](O)[C@@H](O[C@H]3O[C@H](CO)[C@@H](O)[C@H](N)[C@H]3O)[C@H](N)C[C@@H]2N)[C@H](O)[C@@H](O)[C@@H]1O					MIC		20 µg/mL
COc1cc(OC)c2ssc3c(OC)cc(OC)c4ssc1c2-c43	H37Rv			BACTEC	inhibition	12.5 µg/mL	0%
N/C(=N\N=C\c1cc2ccccc2o1)c1cnccn1					MIC		>16 µg/mL
CCCCCCCCCCCCNC[C@H]1OC2OC(C)(C)OC2C2OC(C)(C)OC21	H37Ra				MIC		12.5 µg/mL
O=c1c2cnc(-c3ccccc3)nc2oc2ccc3ccccc3c12	H37Rv			BACTEC	inhibition	12.5 µg/mL	0%
CCc1cc(C(N)=S)ccn1	H37Rv (drug-susceptible)				MIC		32 µM
C=CCN=C(N=Nc1c(O)[nH]c2ccc(Br)cc12)SCC(=O)c1ccc(Br)cc1	H37Rv				inhibition	12 µg/mL	98%
CCCCCCCCCCCCCCCCNC(CCO)C1OC2OC(C)(C)OC2[C@H]1OC	H37Ra				MIC		12.5 µg/mL
CCN(CC)CNC(=O)c1cnc(N(CC)CC)cn1	ATCC35801				MIC		16 µg/mL
CN(C)CCCN1c2ccccc2Sc2ccc(Cl)cc21	Isolate C drug-resistant				MIC		30 µg/mL
N/C(=N\N=C\c1nc2ccc([N+](=O)[O-])cc2o1)c1cnccn1					MIC		>16 µg/mL
O=C(O)c1nc(C2C3CC4CC(C3)CC2C4)[nH]c1C1C2CC3CC(C2)CC1C3	H37Rv				inhibition	6.25 µg/mL	0%
Cc1ccc2c(c1)[n+](=O)c(C(=O)N1CCN(c3ccccc3)CC1)c(C)n2[O-]	H37Rv				MIC		>6.25 µg/mL
CCCCCCCCCCCCCCCC(=O)OCCc1ccc(O)cc1	H37Rv (ATCC 27294)				MIC		>128 µg/mL
Cc1ccc(S(=O)(=O)NN=C2CCC3(O)CC2(C)CCC2C3CC2(C)C)cc1	H37Rv			BACTEC	MIC bound		>12.5 µg/mL
CCn1c(SCC(=O)N=Nc2c(O)[nH]c3ccccc23)nc2ccc(Cl)cc2c1=O	H37Rv				MIC		>12.5 µg/mL
Cc1c(C(=O)Nc2ccccc2)[n+](=O)c2ccccc2n1[O-]	H37Rv		VERO		inhibition	6.25 µg/mL	100%
CCCN(CCC)CNC(=O)c1cnccn1	MS6210				MIC		100 µg/mL
S=c1[nH]c2cc(Cl)c(Cl)cc2[nH]1	H37Rv			BACTEC	inhibition	6.25 µg/mL	85%
N/C(=N\N=C\c1nc2ccccc2o1)c1cnccn1					MIC		>16 µg/mL
O=C(O)c1cnc(C2C3CC4CC(C3)CC2C4)[nH]1	H37Rv				inhibition	6.25 µg/mL	0%
Cc1c(C(=O)N2CCN(Cc3ccccc3)CC2)[n+](=O)c2cc(Cl)c(Cl)cc2n1[O-]	H37Rv				MIC		>6.25 µg/mL
C=CCn1c(-c2ccc(OC)cc2)cs/c1=N\N=C1/C(=O)Nc2ccccc21	H37Rv				inhibition	12 µg/mL	98%
CC1(C)CC(=O)C(C(=O)C(=O)NC2=C(Cl)C(=O)c3ccccc3C2=O)C(=O)C1	H37Rv			BACTEC	inhibition	12.5 µg/mL	-19%
c1cc2c(s1)CCOC21CCN(Cc2ccc3c(c2)OCCO3)CC1	H37Rv	MmpL3: Ser591Ile		fluorescence	fold resistance		≥33.3
Cc1cc2c(cc1C)[n+](=O)c(C(=O)N1CCN(c3ccc([N+](=O)[O-])cc3)CC1)c(C)n2[O-]	H37Rv				MIC		>6.25 µg/mL
CCCCCCCCCCCCCCCCCCCCCCCC(=O)OCCc1ccc(OC)cc1	H37Rv (ATCC 27294)				MIC		>128 µg/mL
N/C(=N\N=C\c1ccncc1)c1ccccn1					MIC		>16 µg/mL
COc1cc(OC)c2cc(C(=O)c3ccc(C#N)cc3)c(=O)oc2c1	H37Rv			BACTEC	inhibition	12.5 µg/mL	15%
Cc1ccc(N2C(=O)C(C)S/C2=N/N=C2\C(=O)Nc3ccc(Br)cc32)cc1	H37Rv				inhibition	12 µg/mL	7%
CC(C)=NNC(=O)c1n[nH]c(C)c1N=NN(C)C	H37Rv			BACTEC	MIC bound		>12.5 µg/mL
Cc1c(C(=O)N2CCN(c3ccccc3)CC2)[n+](=O)c2cc(Cl)c(Cl)cc2n1[O-]	H37Rv				MIC		>6.25 µg/mL
Cc1ccc(-c2cc(-c3ccc(Cl)cc3)nc(/N=C3\C(=O)Nc4ccccc43)n2)cc1	H37Rv			BACTEC	EC50		<6.25 µg/mL
CN=C(N=Nc1c(O)[nH]c2ccccc12)SCC(=O)c1ccc(Br)cc1	H37Rv				inhibition	12 µg/mL	99%
Cc1ccc(-c2cc(-c3ccc(Cl)cc3)nc(/N=C3\C(=O)N(CN4CCCCC4)c4ccc(Br)cc43)n2)cc1	H37Rv			BACTEC	EC50		<6.25 µg/mL
CCCCCCCCCCCCCCCCCCNC(CCO)C1OC2OC(C)(C)OC2[C@H]1OCc1ccccc1	H37Ra				MIC		25 µg/mL
Cc1cc2c(cc1C)[n+](=O)c(C(=O)Nc1ccccc1C)c(C)n2[O-]	H37Rv				MIC		>6.25 µg/mL
COc1ccc(CC(NC(=O)NSc2ccccc2)C(=O)N[C@H]2[C@@H](O)[C@H](n3cnc4c(N(C)C)ncnc43)O[C@@H]2CO)cc1	H37Rv			BACTEC	inhibition	12.5 µg/mL	16%
NC(=O)c1cnccn1	ATCC 35822				MIC		33 µg/mL
O=C1C2=C(c3ccccc31)C(c1ccc(F)cc1)N1C(=O)CCSC1=N2	H37Rv			BACTEC	inhibition	12.5 µg/mL	0%
NNC(=O)c1cccnc1	H37Rv (INH-resistant)				MIC		4096 µM
COc1ccc(/C=N/NC(=O)C(=O)N/N=C/c2ccc(OC)cc2)cc1	H37Rv			BACTEC	inhibition	12.5 µg/mL	21%
CCCCCCCCCCCCC1OC2OC(C)(C)OC2[C@@H]1OCc1ccccc1	H37Ra				MIC		12.5 µg/mL
Clc1ccc(C2=NN=C3C(c4ccccc4)=Nc4ccccc4N3C2)cc1					MIC		>100 µg/mL
CCOC(=O)c1nc(C(C)(C)C)[nH]c1C(C)(C)C	H37Rv				MIC		>6.25 µg/mL
CC1S/C(=N/N=C2\C(=O)Nc3ccc(Br)cc32)N(c2ccc(Cl)cc2)C1=O	H37Rv				EC50		<12 µg/mL
C=CN1CCCC1=O.C=COC(C)=O	H37Rv			resazurin	inhibition	6.25 µg/mL	0%
CCCCn1c(-c2ccccc2)cs/c1=N\N=C1/C(=O)Nc2ccccc21	H37Rv				MIC		>12.5 µg/mL
CN(C)c1ccc(C(N)=S)cc1	H37Rv (drug-susceptible)				MIC		128 µM
O=C1COCC(=O)OCCOCCOCCOCCO1	H37Rv			BACTEC	MIC bound		>12.5 µg/mL
NC(=S)c1ccc([N+](=O)[O-])cc1	H37Rv				MIC		1024 µM
NC(=O)c1cnc(Cl)cn1	ATCC 35828				MIC		8 µg/mL
N/C(=N\N=C\c1ccccn1)c1cnccn1					MIC		>16 µg/mL
O=C(NCN1CCOCC1)c1cnccn1	ATCC35801				MIC		16 µg/mL
CC1COC2(CCN(c3nc(=O)c4cc(C(F)(F)F)cc([N+](=O)[O-])c4s3)CC2)O1	NTB9				MIC		0.25 µg/mL
CCN(CC)Cc1c(C)nc2cc(N(C)C)ccc2c1Cl	H37Rv			BACTEC	inhibition	12.5 µg/mL	71%
O=C(NCN1CCCC1)c1cnccn1	MS6210				MIC		100 µg/mL
CCc1cc(C(N)=S)ccn1	131-4				MIC		0.63 µg/mL
CCCCCCCCCCCCCCCCCCCCCCCCC(=O)OCCc1ccc(O)cc1	H37Rv (ATCC 27294)				MIC		>128 µg/mL
Cc1nnc2c(-c3ccccc3)nc3ccccc3n12					MIC		100 µg/mL
CCNC(=S)N=Nc1c(O)[nH]c2ccccc12	H37Rv				inhibition	12 µg/mL	7%
Cc1ccccc1NC(=O)c1c(C)n([O-])c2ccc(Cl)cc2[n+]1=O	H37Rv		VERO		MIC		6.25 µg/mL
N/C(=N\N=C\c1nc2ccccc2o1)c1ccccn1					MIC		>16 µg/mL
CCCCCCCCCCCCCCCCCCCCCCCCC(=O)OCCc1ccc(OC)cc1	H37Rv (ATCC 27294)				MIC		>128 µg/mL
CN(CNC(=O)c1cnccn1)Cc1ccccc1	MS6210				MIC		33 µg/mL
NC(=O)c1cnccn1	T494				MIC		>900 µg/mL
Cc1ccccc1NC(=O)c1c(C)n([O-])c2cc(Cl)c(Cl)cc2[n+]1=O	H37Rv				inhibition	6.25 µg/mL	100%
CO[C@@H]1C(C(CCO)NC2CC2)OC2OC(C)(C)OC21	H37Ra				MIC		50 µg/mL
O=C(c1ccccc1Cl)c1c(O)c2ccccc2oc1=O	H37Rv			BACTEC	MIC bound		>12.5 µg/mL
CCCCCCCCCCCCCCCCNC[C@H]1OC2OC(C)(C)OC2C2OC(C)(C)OC21	H37Rv				MIC		<12.5 µg/mL
CC(=O)N/C(=C\c1ccc(/C=C(/NC(C)=O)C2=NC3C(=O)c4ccccc4C(=O)C3N2)cc1)C1=NC2C(=O)c3ccccc3C(=O)C2N1	H37Rv			BACTEC	MIC bound		≤12.5 µg/mL
CN(C)c1cc(C(N)=S)ccn1	H37Rv (drug-susceptible)				MIC		512 µM
CCCCCCCCCCCCCCCCCCC1OC2OC(C)(C)OC2[C@@H]1OCc1ccccc1	H37Ra				MIC		25 µg/mL
O=C1C=C(Nc2ccc(S(=O)(=O)Nc3ncccn3)cc2)c2ccccc2C1=O	H37Rv			resazurin	inhibition	6.25 µg/mL	-2%
N/C(=N\N=C\c1cc2ccccc2s1)c1cnccn1					MIC		>16 µg/mL
CCOc1ccc(C(N)=S)cc1	H37Rv (INH-resistant)				MIC		128 µM

Again, the opening 14 rows:

COc1ccc2cc3[n+](cc2c1O)CCc1cc2c(cc1-3)OCO2 ; strain: H37Rv ; method: BACTEC ; measure: inhibition ; dose: 12.5 µg/mL ; result: -11%
NC(=S)c1ccc(N)cc1 ; strain: H37Rv (INH-resistant) ; measure: MIC ; result: 128 µM
Cc1ccc(C2=NN=C3C(c4ccccc4)=Nc4ccccc4N3C2)cc1 ; measure: MIC ; result: 100 µg/mL
CCC1Cn2cc([N+](=O)[O-])nc2O1 ; strain: H37Rv-14A1 (PA-824-resistant) ; measure: MIC ; result: 0.8 µM
CCCCCCCCCCCCCCCCCCCCCCCC(=O)OCCc1ccc(O)cc1 ; strain: H37Rv (ATCC 27294) ; measure: MIC ; result: 64 µg/mL
Cc1ccc(-c2cc(-c3ccc(Cl)cc3)nc(/N=C3\C(=O)N(CN(C)C)c4ccc(Br)cc43)n2)cc1 ; strain: H37Rv ; method: BACTEC ; measure: inhibition ; dose: 6.25 µg/mL ; result: 88%
NNC(=O)c1ccncc1 ; strain: 85 drug-resistant isolates ; measure: EC50 ; result: <40 µg/mL
Cc1ccc(-c2cc(-c3ccc(Cl)cc3)nc(/N=C3\C(=O)Nc4ccc(Br)cc43)n2)cc1 ; strain: H37Rv ; method: BACTEC ; measure: inhibition ; dose: 6.25 µg/mL ; result: 92%
CCOC(=O)c1cnc(C2CCCC2)[nH]1 ; strain: H37Rv ; measure: inhibition ; dose: 6.25 µg/mL ; result: 16%
COC(=O)c1c(C)cc(O)c(C)c1O ; strain: H37Rv (ATCC 27294) ; measure: MIC ; result: >128 µg/mL
C[C@@H](C(=O)N1C(=O)N(C(=O)[C@H](C)[C@H](O)c2ccccc2)[C@@H](c2ccccc2)[C@@H]1c1ccccc1)[C@H](O)c1ccccc1 ; strain: H37Rv ; method: BACTEC ; measure: MIC bound ; result: >12.5 µg/mL
Cc1c(C(=O)Nc2ccccc2)[n+](=O)c2cc(Cl)ccc2n1[O-] ; strain: H37Rv ; cell line: VERO ; measure: inhibition ; dose: 6.25 µg/mL ; result: 99%
CN(C)C(=S)N1C(=S)N(c2ccccc2)C(=Nc2ccccc2)C1=Nc1ccccc1 ; strain: H37Rv ; method: BACTEC ; measure: MIC bound ; result: >12.5 µg/mL
CCOC(=O)c1cnc(C(C)C)[nH]1 ; strain: H37Rv ; measure: MIC ; result: >6.25 µg/mL

An empty or dashed field is not shown. Neighbouring rows are from separate reports. Inhibition is in % at the dose shown (toxicity tests: loss of growth or viability). ECn: concentration that inhibits the pathogen or its effect by n%. Fold resistance has wild type as its base.